Anti-infective test results gathered from many reports (values: NIAID ChemDB through PubChem).

Shared fields: cytotoxicity tests; cells: MT-4; measure: CC50

Blank or dashed fields: not listed here. Conditions beyond the fields shown may differ between rows. CCn is the concentration with n% toxicity to the cells.

compound	read by	value
Cc1cn([C@H]2C[C@H](N=[N+]=[N-])[C@@H](CO)O2)c(=O)[nH]c1=O	MTT	>93.55 µM
Cc1cn([C@H]2CC[C@H](CO)[Se]2)c(=O)[nH]c1=O	MTT	>100 µM
Cc1cn([C@H]2C[C@H](N=[N+]=[N-])[C@@H](CO)O2)c(=O)[nH]c1=O	-	2.1 µg/mL
C1CNCCCN(CCCN2CCNCCC[N+](CCCN3CCCNCCCNCCC3)(CCCN3CCCNCCCNCCC3)CCCNCC2)CCCNC1	-	298 µM
COc1ccc(-c2oc3cc(O)cc(O)c3c(=O)c2OC)cc1O	-	0.06 µg/mL
CC(C)(C)NC(=O)[C@@H]1CN(Cc2cccnc2)CCN1C[C@@H](O)C[C@@H](Cc1ccccc1)C(=O)N[C@H]1c2ccccc2C[C@H]1OC(=O)CCCCO[C@@H]1[C@@H](O)[C@@H](O)O[C@H](CO)[C@H]1O	-	>10 µM
Cc1cn([C@H]2C[C@H](N=[N+]=[N-])[C@@H](CO)O2)c(=O)[nH]c1=O	-	>20 µM
Cc1c(Cc2c(Cl)cccc2Cl)nc(S(=O)(=O)Cc2ccc([N+](=O)[O-])cc2)[nH]c1=O	MTT	>53 µM
O=c1ccn([C@H]2C[C@H](F)[C@@H](CO)O2)c(=O)[nH]1	-	8.2 µM
CC(C)OP(=O)(COc1ccc(C[C@H](C[C@H](O)[C@H](Cc2ccccc2)NC(=O)OC(C)(C)C)C(=O)N[C@H]2c3ccccc3C[C@H]2O)cc1)OC(C)C	-	81 µM
Fc1c(F)c(CN2CCCNCCNCCCNCC2)c(F)c(F)c1CN1CCCNCCNCCCNCC1	-	>250 µg/mL
C1CNCCCN(CCC[N+]2(CCCN3CCCNCCCNCCC3)CCCNCCCNCCC2)CCCNC1	-	470 µM
[N-]=[N+]=N[C@H]1C[C@H](n2cnc3cncnc32)O[C@@H]1CO	-	>1000 µM
CC(C)=CCc1c(O)cc(O)c2c1CCc1cc(O)c(O)cc1-2	-	10 µg/mL
OC[C@@H]1SC[C@@H](n2cnc3c(Cl)ncnc32)S1	-	10 µg/mL
Nc1ncnc2c1ncn2[C@H]1CC[C@@H](CO)O1	-	1580 µM
O=c1[nH]cnc2c1ncn2[C@H]1CC[C@@H](CO)O1	-	100 µg/mL
Fc1cccc(F)c1[C@H]1SCc2nc3ccccc3n21	-	25 µg/mL
Cc1cn([C@H]2C=C[C@@H](CO)O2)c(=O)[nH]c1=O	-	2.9 µM
CCCCCCCC(=O)O[C@]12C(C3C(OO)C(CO)=C[C@]4(O)C(=O)C(C)=CC4[C@@]3(O)[C@H](C)[C@H]1OC(=O)c1ccccc1)C2(C)C	luminescence	<0.005 µM
Cn1cc(C(=O)O)c(=O)c2cc(N)c(N3CCN(c4ccccn4)CC3)cc21	MTT	0.84 µg/mL
Nc1nc2c(ncn2[C@@H]2CS[C@@H](CO)S2)c(=O)[nH]1	-	>100 µg/mL
c1cc(CN2CCCNCCNCCCNCC2)ccc1CN1CCCNCCNCCCNCC1	-	>250 µg/mL
Cc1cn([C@H]2C[C@H](N=[N+]=[N-])[C@@H](CO)O2)c(=O)[nH]c1=O	-	1 µg/mL
Nc1ccn([C@@H]2CC[C@H](CO)[Se]2)c(=O)n1	MTT	>100 µM
C/C(CO)=C(/Br)Cn1cc(C)c(=O)[nH]c1=O	-	>100 µg/mL
Oc1ccccc1CN(CCN1CCCCC1)CC1CCCN(C2CCCC2)C1	MTT	36 µM
CC(=O)c1ccc(C)cc1NC(C(N)=O)c1c(Cl)cccc1Cl	-	49 µg/mL
Nc1ncnc2c1ncn2CCOCP(=O)(O)O	tetrazolium	246 µM
CC(C)C[C@H](NC(=O)[C@@H](NC(=O)N(C)Cc1ccccn1)C(C)C)C(=O)C(F)(F)[C@H](CC(C)C)NC(=O)[C@@H](NC(=O)N(C)Cc1ccccn1)C(C)C	-	63 µM
Cc1cn([C@H]2C[C@H](N=[N+]=[N-])[C@@H](COP(=O)(OCCSC(=O)C(C)(C)C)Oc3ccccc3)O2)c(=O)[nH]c1=O	-	>10 µM
Nc1nc(=O)n([C@H]2CO[C@@H](CO)S2)cc1F	-	>500 µM
Cc1cn([C@H]2C[C@@H](OCP(=O)(O)O)CO2)c(=O)[nH]c1=O	tetrazolium	>343 µM
O=c1oc(C(CC2CC2)CC2CC2)cc(O)c1C(c1cccc(NS(=O)(=O)c2cccc3cccnc23)c1)C1CC1	-	>30 µM
CC(C)(C)NC(=O)[C@@H]1C[C@@H]2CCCC[C@@H]2CN1C[C@@H](O)[C@H](Cc1ccccc1)NC(=O)[C@H](CC(N)=O)NC(=O)c1ccc2ccccc2n1	-	85 µg/mL
Cc1cn([C@@H]2OC[C@H](OCP(=O)(O)O)[C@H]2O)c(=O)[nH]c1=O	tetrazolium	>328 µM
CC(C)=CCc1c(-c2ccc(O)cc2O)oc2c3c(cc(O)c2c1=O)OC(c1c(O)cc(O)c2c(=O)c(CC=C(C)C)c(-c4ccc(O)cc4O)oc12)C1C3C=C(C)CC1(C)C	-	7.2 µg/mL
Nc1ccn([C@@H]2OC[C@H](OCP(=O)(O)O)[C@H]2O)c(=O)n1	tetrazolium	>308 µM
Nc1cc2c(=O)c(C(=O)O)cn(C3CC3)c2cc1NC1CC1	-	>200 µM
Cc1ccnc2c1NC(=O)c1cccnc1N2C1CC1	-	70 µg/mL
Nc1nc(=O)n([C@@H]2CO[C@H](CO)S2)cc1F	-	>500 µM
Cc1ccnc2c1NC(=O)c1cccnc1N2C1CC1	-	224 µM
c1ccc(-c2cc(CN3CCCNCCNCCCNCC3)cc(CN3CCCNCCNCCCNCC3)c2)cc1	-	>250 µg/mL
CC1(C)S[C@@H]2[C@H](NC(=O)Cc3ccccc3)C(=O)N2[C@H]1C(=O)NCCNC(=O)[C@@H]1N2C(=O)[C@@H](NC(=O)Cc3ccccc3)[C@H]2SC1(C)C	-	>100 µM
CC(C)=CCc1c(O)ccc(C2COc3c(CC=C(C)C)c(O)cc(O)c3C2=O)c1O	-	10 µg/mL
Cc1cn([C@H]2C[C@H](N=[N+]=[N-])[C@@H](CO)O2)c(=O)[nH]c1=O	-	247 µM
COCCOCCC(CCOCCOC)c1cc(O)c(C(c2cccc(NS(=O)(=O)c3cn(C)cn3)c2)C2CC2)c(=O)o1	-	>30 µM
Cn1c(CN(CCN2CCCCC2)CC2CCCN(C3CCCC3)C2)nc2ccccc21	MTT	40 µM
Nc1ccn([C@H]2C[C@@H](OCP(=O)(O)O)CO2)c(=O)n1	tetrazolium	>321 µM
Cc1c(Cc2c(Cl)cccc2Cl)nc(SCc2cccc(Cl)c2)[nH]c1=O	MTT	>59 µM
CC(C)[C@H](NC(=O)[C@H](CCCN=C(N)N)NC(=O)N[C@@H](Cc1ccccc1)C(=O)O)C(=O)NC(C=O)Cc1ccccc1	-	>100 µM
O=c1[nH]cnc2c1ncn2[C@H]1CC[C@@H](CO)O1	-	>100 µg/mL
C1CCNCCCN(CCCN2CCCNCCCNCCC2)CCCNCCCCNCCCN(CCCN2CCCNCCCNCCC2)CCCNC1	-	302 µM
S=c1[nH]c2cc(Cl)c(Cl)cc2[nH]1	-	>100 µM
CCCS(=O)(=O)Nc1cccc(C(c2c(O)cc(C(CC)Cc3ccccc3)oc2=O)C2CC2)c1	-	>30 µM
Cc1cn([C@@H]2CC[C@H](CO)[Se]2)c(=O)[nH]c1=O	MTT	>100 µM
OC[C@@H]1O[C@H](n2c(=S)n([C@@H]3O[C@H](CO)[C@@H](O)[C@H]3O)c3cc(Cl)c(Cl)cc32)[C@@H](O)[C@H]1O	-	>100 µM
Nc1nc(Cl)c2ncn([C@H]3CS[C@@H](CO)S3)c2n1	-	>100 µg/mL
CC(C)[C@H](NC(=O)CCc1ccccn1)C(=O)N[C@@H](Cc1ccccc1)C(=O)C(F)(F)[C@H](Cc1ccccc1)NC(=O)[C@H](NC(=O)CCc1ccccn1)C(C)C	-	>100 µM
c1cc(CN2CCCNCCCNCCNCCC2)ccc1CN1CCCNCCCNCCNCCC1	-	>250 µg/mL
CC(C)(C)OC(=O)N[C@@H](Cc1ccccc1)[C@@H](O)C[C@@H](Cc1ccc(OCP(=O)(OCc2ccccc2)OCc2ccccc2)cc1)C(=O)N[C@H]1c2ccccc2C[C@H]1O	-	200 µM
COc1ccc(CSc2nc(Cc3c(Cl)cccc3Cl)c(C)c(=O)[nH]2)c(OC)c1	MTT	>55 µM
CCc1cc(CCc2nc3ccccc3o2)c(=O)[nH]c1C	-	188 µM
CC(C)[C@H](NC(=O)OCc1ccccc1)C(=O)N[C@@H](Cc1ccccc1)C(=O)C(F)(F)[C@H](Cc1ccccc1)NC(=O)[C@@H](NC(=O)OCc1ccccc1)C(C)C	-	>100 µM
CC(C)(C)NC(=O)[C@@H]1CN(Cc2cccnc2)CCN1C[C@@H](O)C[C@@H](Cc1ccccc1)C(=O)N[C@H]1c2ccccc2C[C@H]1O	-	>100 µM
CC(C)(C)OC(=O)N[C@@H](Cc1ccccc1)[C@@H](O)C[C@@H](Cc1ccc(OCC(=O)O)cc1)C(=O)N[C@H]1c2ccccc2C[C@H]1O	-	>200 µM
CCC(Cc1ccccc1)c1cc(O)c(C(c2cccc(NS(=O)(=O)c3ccc(OC)cc3)c2)C2CC2)c(=O)o1	-	>30 µM
C1CNCCCN(CCCN2CCCNCCCN(CCCN3CCCNCCCNCCC3)CCCNCCC2)CCCNC1	-	75.5 µM
CC(C)[C@H](NC(=O)N(C)Cc1ccccn1)C(=O)N[C@@H](Cc1ccccc1)C(=O)C(F)(F)[C@H](Cc1ccccc1)NC(=O)[C@@H](NC(=O)N(C)Cc1ccccn1)C(C)C	-	56 µM
Nc1nc2c(ncn2[C@H]2CS[C@@H](CO)S2)c(=O)[nH]1	-	>100 µg/mL
C1CCNCCCNCCCN(CCCN2CCCNCCCCNCCCN(CCCN3CCCNCCCNCCCCNCCCNCCC3)CCCNCCCCNCCC2)CCCNCCCNC1	-	47.2 µM
Nc1nc(=O)n([C@@H]2CS[C@@H](CO)S2)cc1F	-	>100 µg/mL
Cc1c(Cc2c(Cl)cccc2Cl)nc(SCc2ccc(C#N)cc2)[nH]c1=O	MTT	>60 µM
COc1ccc(S(=O)(=O)NC(N)=NCCC[C@H](NC(=O)N[C@@H](Cc2ccccc2)C(=O)OC(C)(C)C)C(=O)N[C@H](C(=O)N[C@H](COCc2ccccc2)Cc2ccccc2)C(C)C)cc1	-	41 µM
CC1(C)C=Cc2c(cc(O)c3c(=O)c4c(oc23)-c2ccc(O)cc2OC(C(C)(C)O)C4)O1	-	12 µg/mL
CC(C)(C)NC(=O)[C@@H]1CN(Cc2cccnc2)CCN1C[C@H](C[C@@H](Cc1ccccc1)C(=O)N[C@H]1c2ccccc2C[C@H]1O)OC(=O)CCC(=O)O[C@H]1[C@@H](C2COC(C)(C)O2)OC2OC(C)(C)O[C@H]21	-	>10 µM
Nc1ccn([C@H]2CC[C@@H](CO)O2)c(=O)n1	-	634 µM
Nc1nc(=O)n([C@H]2CS[C@@H](CO)S2)cc1F	-	>100 µg/mL

The last 8 rows once more:

{"compound": "C1CCNCCCNCCCN(CCCN2CCCNCCCCNCCCN(CCCN3CCCNCCCNCCCCNCCCNCCC3)CCCNCCCCNCCC2)CCCNCCCNC1", "value": "47.2 µM"}
{"compound": "Nc1nc(=O)n([C@@H]2CS[C@@H](CO)S2)cc1F", "value": ">100 µg/mL"}
{"compound": "Cc1c(Cc2c(Cl)cccc2Cl)nc(SCc2ccc(C#N)cc2)[nH]c1=O", "read by": "MTT", "value": ">60 µM"}
{"compound": "COc1ccc(S(=O)(=O)NC(N)=NCCC[C@H](NC(=O)N[C@@H](Cc2ccccc2)C(=O)OC(C)(C)C)C(=O)N[C@H](C(=O)N[C@H](COCc2ccccc2)Cc2ccccc2)C(C)C)cc1", "value": "41 µM"}
{"compound": "CC1(C)C=Cc2c(cc(O)c3c(=O)c4c(oc23)-c2ccc(O)cc2OC(C(C)(C)O)C4)O1", "value": "12 µg/mL"}
{"compound": "CC(C)(C)NC(=O)[C@@H]1CN(Cc2cccnc2)CCN1C[C@H](C[C@@H](Cc1ccccc1)C(=O)N[C@H]1c2ccccc2C[C@H]1O)OC(=O)CCC(=O)O[C@H]1[C@@H](C2COC(C)(C)O2)OC2OC(C)(C)O[C@H]21", "value": ">10 µM"}
{"compound": "Nc1ccn([C@H]2CC[C@@H](CO)O2)c(=O)n1", "value": "634 µM"}
{"compound": "Nc1nc(=O)n([C@H]2CS[C@@H](CO)S2)cc1F", "value": ">100 µg/mL"}